Source: publication PMC12061854
For at least one entry, the source does not settle the construct or the ends of the probe.

Protein sequences, listed by entry. Tags and fused reporters are not part of them. Lines headed by an entry give the natural chain unless they say otherwise; changes in a name come on top.
UniProt O54294: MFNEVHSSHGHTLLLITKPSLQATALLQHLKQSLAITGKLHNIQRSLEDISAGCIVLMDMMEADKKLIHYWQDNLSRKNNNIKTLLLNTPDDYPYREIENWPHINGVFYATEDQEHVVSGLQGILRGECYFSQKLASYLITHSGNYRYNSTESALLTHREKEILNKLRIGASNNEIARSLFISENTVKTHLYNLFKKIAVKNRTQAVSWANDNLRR

Each sequence was assayed against CsgD (UniProt O54294) (assay: EMSA). Details: recombinant protein; residues 1-216; probe letters rebuilt from the primers and the genome.

Question: Does “AAACCATTCAGGCAGTCGCACAACACACCCGCCATCCGCTCTCATTTCACCTGATGGTCTCATCACCGCAACGCTGGCTACCCTGGCTTGCAGCTATCCGCCCCGGCTGGATTTTCATTCATGCCGAAAGCGTGCAAAACCCCCCGGAGATTCTGGCGGATATTCGCGCTATCGGGGCGAAAGCAGGACTGGCGCTTAACCCGGCAACGCCGCTATTGCCTTATCGTTATCTGGCATTGCAACTGGATGCGCTGATGATCATGACCAGCGAACCCGACGGACGCGGACAGCAATTTATCGCCGCGATGTGTGAAAAAGTGAGCCAGGGCAGAGAGCATTTCCCTGCTGCGGAATGCTGGGCGGACGGCGGTATTACACTTCGCGCCGCACGGCTGCTTGCCGCCGCAGGCGCACAGCATCTGGTGATTGGCCGGGCGTTATTCACGACGGCGAACTATGATGTGACGTTGTCACAATTCACCGCGCTATAAAGGAGTCAT (double strand) [orf02401 promoter]” bind?
Answer: binds

Question: Does “ACCTCACGCCCAACATTTCCGTTAAGCAAACTTAAAGCCGCTCCTGTACCATATTTTTTCCGACGTGTATTAAACTGGTATTTAATAAGCTCATGCATAATGATACCTTTTGTTAAAGTTTATTTATTGAAATAATATGTTTTTGGCAATTATTGAGTAGAAACAAGTAAAGAACTCGCGTTTTGTGGCTGTAGTAGTGGTTATCCTCACTTTAATAAACCGTACTGATAAAAGAGCCGCACAATATCTATTACGTCCTTTTCTTTATTCCACTGATTATGATAGTACTATGCTTATTGCTGTTAAATGGCGCGAAAATGCCCATCGTCGTGCAATTTTCACCTTTTTTTAACGACCTGGACGCGGCAAAATTGCGCACAGTGATAGTCATCACATTAAAGAGGTTATTTGCGAT (double strand) [orf01550 promoter]” bind?
Answer: binds

Question: Does “AGTTATTTAAGTATTTTCTAAATTTAGTTAATTCTAAAATAAACATCAACCTGATGCCAGCGTAAAAAGCGTAAAGGAGGGTAAAAGCGCGGCGCGCGACTGGCAGGCTCAGGTAAACTGACTATGCTTAGAGATAAAATCTCTTTTTAAACAATGACTAATTTTGCTTGTATGGAGTGTATATGGGTTTCTGGAGAATTGTATTTACGATTATTTTGCCTCCGCTCGGCGTACTTTTAGGAAAAGGGTTCGGTTGGGCATTTATCCTTAATATCCTGCTGACATTACTCGGATATATTCCGGGGCTTATCCACGCATTTTGGGTTCAGATGCGTCATTAATTACCGGCCACCGGCGGCGCATAAGCGCCGCTTATCAGGATAACCTCATTCCCTCTGCTACACTTTTCTTTGTGTGTATTTTTGACAAGCGAGGTGAAT (double strand) [orf01076 promoter]” bind?
Answer: binds

Question: Does “ATCGACCGGCAGATAAAACCACAATTTGGGTTTGTTGACGCCATCGACCAGCAGCCAGCAATTTGGAACCTGAGTTACCGGCACCCACGCTTTAAACTGCGGATTGACCTTAAACGGATAAGGGTGATCGTCGAGAAAGACGTTGAAAAGCTCGCCGGAATGAATAAGTAACGCATCCAGCTTAAAGCGCGCCAGAACATCGCGCGTCCGTTCTTGTAAGGTAACAATATGATTTTTATAGAGCGCGGCCAGTGATTCCATTTTTTACCCTTCTGTTTTTTTGACCTCAAGTTTCCGCATCTTAGCACATCGCCCCACGAGAGCGTGATCTCTGCCGAGCGTGATCACATCGGCATTTCTTCAATCATTTATTTGCATTTTATTAACACAAAATACACACTTCGCTTCATCTGGTACGACCAGATCACCTTGTGGATTCAGGAGACTGAC (double strand) [orf04582 promoter]” bind?
Answer: binds

Question: Does “CGTTTCACCCTTGCTCGCGAGGTCCCGGTTTAACTTTAGACGCTCTTTTACGAACCAGGAAGTTTTGCCTGTTTTTTATGCATTAAAACGCGAAGTAGCGGGTTGCGGCGGGGTGTTTAAGTGATCGTATTCACGAATTCATATTTTTATGCAACAGTTCAAAGAAAGTTAATCGTACTCAATGTATGTTACGCGCTTTTAATTGAAGTGTGGTTTGCGGGTATGTACGAGTTTAATCTGGTGTTGCTGCTGCTTCAGCAGATGTGCGTGTTTCTGGTCATTGCGTGGCTAATGAGTAAAACGCGTCTGTTCATCCCGCTTATGCAGGTCACGGTTCGTCTGCCGCACAAGCTTCTGTGTTACGTCACGTTTTCTATCTTCTGCATCATGGGCACTTATTTTGGGCTGCATATCGAAGATTCGATTGCCAATACCCGCGCAATTGGCGCGGTGATGGGCGGCCTACT (double strand) [orf01644 promoter]” bind?
Answer: binds

Question: Does “GCGTCATTTTCAGGTAAGAAACATCAAACTGGGAGAACGCTCGCAGAAGCGAAAAGAAGGAAAACAGGGTGTAGAGTGCGCCAAAAGGGGGAGGAAAACGTGAAAATTTTTCAGTTGCTAATTTTTCTTATAAAAAACAAAGCACTTTTAGGCATTCACCTGCATTATCTGAAACGTGGTTAAAAAAATATCTTGTGCTATTGGCAAAACCTATGGTAACTCTTTAGGTATTCCTTCGAACAAGATGCAAGAATAGACAAAAATGACAGCCCTTCTACGAGTGATTAGCCTGGTCGTGATTAGCGTGGTGGTGATTATTATCCCACCGTGCGGGGCTGCACTTGGACGAGGAAAGGCTTAGAAATCAAGCCTTAACGAACTAAGACCCCCGCACCGAAAGGTCCGGGGGTTTTTTTTGGCCTGAAAAACTTAAGCGAGGAGCAGAGCGTGAATAACAGCATAAAGTTCTGTTTCTCAAGATTTACGACGGGGATGTAACT (double strand) [orf04655 promoter]” bind?
Answer: binds

Question: Does “GCTCTCTCCTTAATAACGTCTATTTGACGTATTAAGTCTGGCCGCTATTTTTAGTTTTTACAAACATGAATTTACCCGCAGAATATTAAGCAATAAAATCAACCCATCCGGATTAATATGCAACCGACATCAGCACCGGTGAGCGCGAAAGCGTAACGGCGTAATAGAGAACTTGCCACATAGCTGAAGTCATATGCATCAACGTTTTGATAGCAATTCAGATTAATCGGCTTTATTTTTTGAGGATAATGGCCTTACGCATAATCAATGACAGTCATCGCCGTAAGAAAGTAAGCAAGTTATGCAACAGCGGGTTTGTTGGTAACTGGATAAAATAATCATTCACTGACAATGTCATAAAATAAATATGCCATACTTGAGAAGAACGAACAGATTTCTTTTGTCTCTGGTAACGGAAAAATAAACG (double strand) [orf02298 promoter]” bind?
Answer: binds

Question: Does “TAAGACAAATTACACTCTTAAACTTTCAACGAATGGTCATTTAGTGGAAATCTTCGAGAAAAATGGTTCTGATGGTGTAATTATCAGACCATTAACCATGAAGATATAATAAGCAGCATTTACACCCCAAAAAAATGCAGTAAGATAGCTACAAAACTAATCTCTATTGCAATGAGGCCAAGTTAAATATGTAAATATTTAGATGCCAGGCGCTGACTCTCTCTGCACCAGGATATACGGCAGCGTCCATTCGATAATCACGGTTAGTTATAACAATATTATTACCAACATGTCAGTTATTTAAAGCACAGGCATAAGCTAAATAATCAAATGTTAAAAACATATAAACCCGAGCCCGTAGAATATGACATTAAGCTCATAATAAAAGCTCAACCTGACCGTTAGTACTAACAGCAGAATTACTGAAACAGTAGATTCTATCCTAACGACTTGTATTAGTTATTATAACTTTTCACCCTGTAAGAGAATACACTATTATC (double strand) [orf00995 promoter]” bind?
Answer: binds

Question: Does “TGTATATCCTGCTTTTCTTTAGCCACATAAGCCAAAGCGCCCGTCAAAGGCATTGGCCGGGTGGTGAAATTGTGTTCGCGCGTCCCATAGCGCGACAATACGCTATTGCAAATGCAAATAGTTATCAATAATATTATCAATATATTTCACCTTTTATATACAAAATTCATAATAAACACAGGGTTATAATGAAAGAGGCGCTGGCAACGGGAAGTAAGGCCTGGTGGAGGACGAAAACCGGGCCGGAATGGATACGGGAAAAAGACGGAAATTATCGGGTCACTTTTTGGTGGCGCGACCCGCAGGGAAACGAAACACACTCCCCGATACGGCGTGTCTGGGTCTACATCACTGGCGTAACCGATCATCATCAAAACGCGCAGCCTCAGACGATGGCGCGTATTGCCGGAACGGATGTCTGGCGCTGGAGTACGGCGCTTAGCGCTAACTGGCGCGGCAGCTACTGTTTTATTCCTACCGAACGCGATGACGTTTTTGCC (double strand) [orf03345 promoter]” bind?
Answer: binds
